Measurements from article PMC10900488, “Synthesis and Evaluation of (Bis)benzyltetrahydroisoquinoline Alkaloids as Antiparasitic Agents” (JACS Au, 2024).

Legend:
[1] = system: L. infantum amastigotes; experiment: Antiamastigote assay (L. infantum), ex vivo intracellular model of mice macrophages, microscopy; type: cell-based, Leishmania (L.) infantum; conditions: selectivity index CC50 (NCTC cells)/IC50 amastigotes
Protocol: Table 1 depicts the antileishmanial (L. infantum) activity evaluation performed against both the amastigote form (evaluated microscopically using an ex vivo intracellular model of mice macrophages) and the promastigote one (using an MTT colorimetric method).[32],[33] The cytotoxicity was evaluated against NCTC cells using an MTT colorimetric method and the selectivity index was determined using the ratio between the CC50 values (NCTC cells) and the IC50 values (amastigotes).[32] […] With respect to the substituents on the C ring, larger, hydrophobic groups conferred greater bioactivity (e.g., 9b–d), whereas small, hydrophilic groups such as a hydroxyl group afford modest to poor bioactivity.
Leishmania (L.) infantum (MHOM/BR/1972/LD) amastigotes were obtained from golden hamsters (Mesocricetus auratus) spleens following 60-70 days of infection via differential centrifugation. The Stauber method was used to determine the number of parasites.12 […]
(§1) Peritoneal macrophages were obtained via washing the peritoneal cavity of BALB/c mice with 10% foetal calf serum supplemented RPMI-1640 medium (pH 7.2). The macrophages were maintained in a humidified incubator at 37 °C and with 5% CO2.
(§2) Biological activity assays […]
Antiamastigote Assay (L. infantum)
Peritoneal macrophages (1 × 10^5/well) were added to a 16-well slide chambers (NUNC) and incubated with 5% CO2 at 37 °C. The cells were subsequently infected with L. infantum amastigotes (10:1 amastigotes/macrophage) for 24 h. Treatment of the cells with selected compounds (serially diluted 1.2 to 150 μM) was performed in a humidified incubator for 96 h at 37 °C and with 5% CO2. Untreated cells were used as a negative control and miltefosine was used as a standard drug. The treated cells were fixed on slides with methanol, stained with Giemsa and observed under a light microscope.13 The infection index was used in order to determine the half inhibitory concentration (IC50) (no. infected macrophages × no. amastigotes / total no. […]

[2] = system: T. cruzi amastigotes; experiment: Antiamastigote assay (T. cruzi), ex vivo intracellular model using mice macrophages, microscopy; type: cell-based, Trypanosoma (T.) cruzi; conditions: selectivity index CC50 (NCTC cells)/IC50 amastigotes
Protocol: T. cruzi also assumes several cell morphologies during its lifecycle, which differ between the insect vector and mammalian host. In the latter environment, the parasite transitions between extracellular bloodstream trypomastigotes and intracellular amastigotes; both forms are clinically relevant, particularly during the acute stage of Chagas disease.[34] In this work, antitrypanosomal activity was tested against both the amastigote form (evaluated microscopically using an ex vivo intracellular model using mice macrophages) and the trypomastigote form (using the resazurin in vitro assay).[33],[35] […] In silico predictions of pharmacokinetic profiles were carried out using the SwissADME webtool (see the Supporting Information for details).[36] […]
[…] Cultivation was performed in 2% fetal calf serum supplemented RPMI-1640 medium.
The trypomastigotes were maintained in a humidified incubator at 37 °C and with 5% CO2. […]
as §1, §2
Peritoneal macrophages (1 × 10^5 cells/well) obtained from the peritoneal cavity of BALB/C mice were added to 16-well chambers (NUNC, Thermo Fischer Scientific). The cells were infected with trypomastigotes (10:1 parasites/macrophage) for 2 h. Then treatment of the infected macrophages with selected compounds (serially diluted 1.2 to 100 μM) was performed in a humidified incubator for 48 h at 37 °C and with 5% CO2. The treated cells were fixed on slides using methanol, stained with Giemsa and observed under a light microscope (EVOS M5000, Thermo, USA) with digital image equipment. The infection index was used in order to determine the half inhibitory concentration (IC50) (no. infected macrophages × no. amastigotes / total no.

Row | SMILES | L. infantum SI [1] | T. cruzi SI [2]
1 | COc1cc2c(cc1OC)[C@H](Cc1ccc(Br)cc1)N(C)CC2 [(S)-9a] | 3.2 | 1.7
2 | COc1cc2c(cc1OC)[C@@H](Cc1ccc(OC)c(OCc3ccccc3)c1)N(C)CC2 [(R)-9b] | 4.7 | > 10 and 13
3 | O=C(Cn1ccnc1[N+](=O)[O-])NCc1ccccc1 [benznidazole, reference compound] |  | >40
4 | COc1cc2c(cc1OC)[C@@H](Cc1ccc(Oc3cc(C[C@H]4c5cc(OC)c(OC)cc5CCN4C)ccc3O)cc1)N(C)CC2 [(R,S)-13] |  | 4.8
5 | COc1cc2c(cc1OC)[C@@H](Cc1ccc(Oc3cc(C[C@H]4c5cc(OC)c(OC)cc5CCN4C)ccc3OC)cc1)N(C)CC2 [(S,R)-11, (−)-O,O′-dimethylgrisabine] |  | 4.7
6 | COc1cc2c(cc1OC)[C@@H](Cc1ccc(Oc3cc(C[C@@H]4c5cc(OC)c(OC)cc5CCN4C)ccc3OC)cc1)N(C)CC2 [(R,R)-11, (−)-O-methyldauricine] |  | 7.8
7 | CCCCCCCCCCCCCCCCOP(=O)([O-])OCC[N+](C)(C)C [miltefosine, reference compound] | 18 | 
8 | COc1cc2c(cc1OC)[C@H](Cc1ccc(OC)c(OCc3ccccc3)c1)N(C)CC2 [(S)-9b] | 1.8 | 3.9
9 | COc1cc2c(cc1OC)[C@@H](Cc1ccc(Br)cc1)N(C)CC2 [(R)-9a] | 3.7 | 2.7
10 | COc1cc2c(cc1OC)[C@H](Cc1ccc(Oc3cc(C[C@H]4c5cc(OC)c(OC)cc5CCN4C)ccc3O)cc1)N(C)CC2 [(S,S)-13, (+)-dauricine] |  | 7.0
11 | COc1cc2c(cc1OC)[C@@H](Cc1ccc(O)c(Oc3ccc(C[C@H]4c5cc(OC)c(OC)cc5CCN4C)cc3)c1)N(C)CC2 [(S,R)-13] |  | 3.6
12 | COc1ccc(COc2ccc(C[C@H]3c4cc(OC)c(OC)cc4CCN3C)cc2Br)cc1 [(S)-9c] |  | 1.9
13 | COc1cc2c(cc1OC)[C@H](Cc1ccc(OCc3ccccc3)cc1)N(C)CC2 [(S)-9d] | <1 | 2.0
14 | COc1cc2c(cc1OC)[C@@H](Cc1ccc(OCc3ccccc3)cc1)N(C)CC2 [(R)-9d] | 3.0 | 4.5
15 | COc1ccc(COc2ccc(C[C@@H]3c4cc(OC)c(OC)cc4CCN3C)cc2)cc1 [(R)-10c] | 3.0 | 

“And” between values parts separate entries of the source, which are not always exact repeats. Identical values can stand only once.
